Measurements reported in PubChem BioAssay AID1224833 (University of Georgia, 2016).
Test: 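Host factors restraining rotavirus as candidate antiviral genes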 (primary screen). System: monkey MA104 kidney cells. Reagent: siRNA pool against human genes, 50 nM. Timing: 48 h knock-down before infection; read 24 h after infection. Conditions: infection with rotavirus strain RV3 two days after transfection; infectious dose for this stage not given. Read-out: 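Rotavirus antigen per well by fluorescent immunoassay, normalised to non-targeting control wells on each plate and given as a standard z-score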. Scale: z-score vs non-targeting control: higher = more rotavirus replication than with non-targeting control. Call rule: In these data the active calls have z-score vs non-targeting control at about -1 or lower, or at about 1 or higher. Meaning of the calls: active = z-score beyond 1 either way; inactive = z-score within 1 of zero.
Shown is one part, drawn at random, of about 12,000 reagents tested. About 5,600 of all reagents (46%) were called active. 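Active calls cover z-scores past 1 in both directions, so they include lowered as well as raised rotavirus replication.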 A number with no mark means an inactive call.

RGS7 (regulator of G protein signaling 7): z-score vs non-targeting control = 0.925
EIF3L (eukaryotic translation initiation factor 3 subunit L): z-score vs non-targeting control = 1.46 (active)
LAG3 (lymphocyte activating 3): z-score vs non-targeting control = 2.29 (active)
FNDC3B (fibronectin type III domain containing 3B): z-score vs non-targeting control = -0.114
USP37 (ubiquitin specific peptidase 37): z-score vs non-targeting control = 1.06 (active)
RIMBP2 (RIMS binding protein 2): z-score vs non-targeting control = -2.03 (active)
SNAPC1 (small nuclear RNA activating complex polypeptide 1): z-score vs non-targeting control = -1.52 (active)
ARF6 (ARF GTPase 6): z-score vs non-targeting control = 0.899
ITM2B (integral membrane protein 2B): z-score vs non-targeting control = -0.924
RASL12 (RAS like family 12): z-score vs non-targeting control = 1.48 (active)
ZNF501 (zinc finger protein 501): z-score vs non-targeting control = -0.0337
C1QTNF2 (C1q and TNF related 2): z-score vs non-targeting control = -0.786
CDX4 (caudal type homeobox 4): z-score vs non-targeting control = -1.1 (active)
SPMIP3 (sperm microtubule inner protein 3): z-score vs non-targeting control = 1.18 (active)
NHS (NHS actin remodeling regulator): z-score vs non-targeting control = 1.04 (active)
MCM9: z-score vs non-targeting control = -0.291
PDPN (podoplanin): z-score vs non-targeting control = 0.181
CHD3 (chromodomain helicase DNA binding protein 3): z-score vs non-targeting control = -1.67 (active)
SHBG (sex hormone binding globulin): z-score vs non-targeting control = -1.09 (active)
CEP170B (centrosomal protein 170B): z-score vs non-targeting control = 2.37 (active)
CCAR1 (cell division cycle and apoptosis regulator 1): z-score vs non-targeting control = -1.38 (active)
HOXD9 (homeobox D9): z-score vs non-targeting control = 1.14 (active)
BNIP2 (BCL2 interacting protein 2): z-score vs non-targeting control = -1.49 (active)
ASNS (asparagine synthetase (glutamine-hydrolyzing)): z-score vs non-targeting control = 1.86 (active)
XPOT (exportin for tRNA): z-score vs non-targeting control = 0.226
SPRR2B (small proline rich protein 2B): z-score vs non-targeting control = -0.713
CD302 (CD302 molecule): z-score vs non-targeting control = -1.42 (active)
LRRC19 (leucine rich repeat containing 19): z-score vs non-targeting control = -0.757
VPS13B (vacuolar protein sorting 13 homolog B): z-score vs non-targeting control = 0.448
CSTF2T (cleavage stimulation factor subunit 2 tau variant): z-score vs non-targeting control = 0.0191
ARAP1 (ArfGAP with RhoGAP domain, ankyrin repeat and PH domain 1): z-score vs non-targeting control = -1.45 (active)

Continued, starting with the last 3 of the part before.
VPS13B (vacuolar protein sorting 13 homolog B): z-score vs non-targeting control = 0.448
CSTF2T (cleavage stimulation factor subunit 2 tau variant): z-score vs non-targeting control = 0.0191
ARAP1 (ArfGAP with RhoGAP domain, ankyrin repeat and PH domain 1): z-score vs non-targeting control = -1.45 (active)
PCDHB15 (protocadherin beta 15): z-score vs non-targeting control = 1.48 (active)
CWF19L1 (CWF19 like cell cycle control factor 1): z-score vs non-targeting control = 0.168
BABAM2 (BRISC and BRCA1 A complex member 2): z-score vs non-targeting control = -1.3 (active)
VWC2 (von Willebrand factor C domain containing 2): z-score vs non-targeting control = 1.15 (active)
CXorf38 (chromosome X open reading frame 38): z-score vs non-targeting control = 0.814
ITGA10 (integrin subunit alpha 10): z-score vs non-targeting control = -0.0017
CCNJL (cyclin J like): z-score vs non-targeting control = -0.654
ZNF584 (zinc finger protein 584): z-score vs non-targeting control = -2.2 (active)
RPL37A (ribosomal protein L37a): z-score vs non-targeting control = 1.82 (active)
RELL1 (RELT like 1): z-score vs non-targeting control = -1.18 (active)
TNS2 (tensin 2): z-score vs non-targeting control = 0.65
KRT10 (keratin 10): z-score vs non-targeting control = 0.054
ADARB2 (adenosine deaminase RNA specific B2 (inactive)): z-score vs non-targeting control = -1.28 (active)
UPF2 (UPF2 regulator of nonsense mediated mRNA decay): z-score vs non-targeting control = 0.749
LRMDA (leucine rich melanocyte differentiation associated): z-score vs non-targeting control = -0.938
CD163 (CD163 molecule): z-score vs non-targeting control = -1.64 (active)
